A mixed list of measured activities; the numbers were collected in NIAID ChemDB.

All rows: host cell toxicity; cells: VERO; read-out: CC50

CCn is the concentration with n% toxicity to the cells. Conditions beyond the fields shown may differ between rows.

SMILES	value
CC(C)(C)c1cc(C(C)(C)C)c2oc(-c3ccc(Br)cc3)nc2c1	80.4 µg/mL
CC(=O)OCCOCn1c(-c2ccccc2)cc([N+](=O)[O-])c1-c1ccccc1	37 µM
CC(C)(C)c1cc(C(C)(C)C)c2oc(-c3ccccn3)nc2c1	32.9 µg/mL
N#Cc1ccc(NC(=O)c2ccc([N+](=O)[O-])o2)cc1	3.53 µg/mL
CCOC(=O)c1c([N+](=O)[O-])c(-c2ccccc2)n(COCCOC(C)=O)c1-c1ccccc1	96 µM
O=c1[nH]c(=O)n([C@H]2C[C@H](O)[C@@H](CO)O2)cc1/C=C/Br	>500 µM
CC1(C)[C@@H](CO)CC[C@@]1(C)Cn1nnc2c(Cl)ncnc21	>400 µg/mL
CCOC(=O)CC1OP(=O)(OC[C@H]2O[C@@H](n3cc(/C=C/Br)c(=O)[nH]c3=O)C[C@@H]2O)Oc2cccc(Cl)c21	18.3 µg/mL
Nc1ncnc2c1ncn2[C@@H]1O[C@@H](CO)[C@H](O)C1(F)F	>100 µM
c1ccc(-c2cc3ccc(N4CCCCC4)nc3nc2N2CCCCC2)cc1	2.74 µg/mL
CO[C@H]1C[C@H](n2cc(/C=C/Br)c(=O)[nH]c2=O)O[C@@H]1COP1(=O)OCc2cccc(C)c2O1	33.5 µg/mL
Cn1cc(C(=O)c2ccccc2)cc1/C=C/C(=O)NO	15 µg/mL
CCc1ccccc1NC(=O)c1c(C)n([O-])c2cc(F)c(F)cc2[n+]1=O	>30 µg/mL
CCCC[C@]1(C(=O)CCC)CC[C@@]2(c3ccccc3)ON12	<50 µg/mL
CSc1nsc(-c2ccc3ccccc3c2)c1C#N	20 µM
O=C1CC(c2ccc([N+](=O)[O-])cc2)n2nc(C3CCCCC3)nc2N1	>50 µg/mL
CN[C@@H]1[C@H](O[C@H]2[C@H](O[C@H]3[C@H](O)[C@@H](O)[C@H](N=C(N)N)[C@@H](O)[C@@H]3N=C(N)N)O[C@@H](C)[C@]2(O)C=O)O[C@@H](CO)[C@H](O)[C@H]1O	>64 µg/mL
Cc1cn([C@H]2C[C@H](O)[C@@H](CO)S2)c(=O)[nH]c1=O	7.1 µM
CC#Cc1cn([C@H]2C[C@H](O)[C@@H](CO)O2)c(=O)[nH]c1=O	>500 µM
COC(=O)n1c(C(=O)NC(C)C)nc2ccccc21	153 µM
Nc1ncnc2c1CCN2[C@@H]1O[C@H](CO)C[C@H]1O	40 µg/mL
O=C(C/C=C/c1ccccc1)Nc1cccc(N2CCSCC2)c1	32 µg/mL
O=c1nc2c(ncn2Cc2ccccc2)c(C#Cc2ccccc2)n1Cc1ccccc1	<0.2 µg/mL
Nc1ccn([C@H]2C=C(F)[C@@H](CO)O2)c(=O)n1	>100 µM
COc1ccc(N(C)C(=O)c2ccc([N+](=O)[O-])o2)cc1	25.25 µg/mL
CN(C)c1ccc(/C=N/NC(=O)Cn2nc(-c3ccccc3)c3c2-c2ccccc2S(=O)(=O)N3C)cc1	>100 µM
CC(=O)OCCOCn1c(-c2ccccc2)c(Br)c(Br)c1-c1ccccc1	23 µM
Cc1c(CN2CCN(C)CC2)cc(-c2ccccc2)n1-c1ccccc1Cl	4 µg/mL
N#Cc1c(N)c(-c2ccccc2)n(COCCO)c1-c1ccccc1	>300 µM
Cc1c(CN2CCSCC2)cc(-c2ccccc2)n1-c1cccc2ccccc12	4 µg/mL
CC1(C)[C@@H](CO)CC[C@@]1(C)Cn1cnc2c(Cl)ncnc21	>400 µg/mL
Nc1ccn([C@H]2S[C@@H](CO)C=C2F)c(=O)n1	>100 µM
Cc1nc(C(C)C)c2[nH]c(=S)[nH]c(=O)n12	200 µg/mL
CN1CCN(c2ccc(NCc3ccc(-c4ccccc4)cc3)cc2)CC1	1 µg/mL
CCN(CC)C(=O)c1cc(COc2cc(C(F)(F)F)nc3c(C(F)(F)F)cccc23)on1	46.5 µM
CN1CCN(c2cccc(NCc3ccc(Cl)cc3)c2)CC1	4 µg/mL
Cc1c(CN2CCN(C)CC2)cc(-c2ccc(Cl)cc2)n1-c1ccc(Cl)cc1	4 µg/mL
CCOC(=O)c1cc(COc2cccc3cccnc23)on1	>128 µM
c1ccc(-c2ccc(CNc3ccc(N4CCSCC4)cc3)cc2)cc1	4 µg/mL
CCCC(=O)[C@@]1(CCC2OCCO2)CC[C@@]2(c3ccccc3)ON12	>50 µg/mL
Cc1c(CN2CCSCC2)cc(-c2ccccc2F)n1-c1ccccc1	4 µg/mL
C[C@H](NC(=O)c1ccc([N+](=O)[O-])o1)c1ccccc1	25.63 µg/mL
Nc1ncnc2c1CCN2[C@@H]1O[C@H](CSCCC(N)C(=O)O)C[C@H]1O	400 µg/mL
CN1c2c(-c3ccccc3)nn(CC(=O)N/N=C/c3ccc(Br)cc3)c2-c2ccccc2S1(=O)=O	36.4 µM
Cc1nc(CC(O)CO)c2nc[nH]c(=O)n12	>400 µg/mL
O=Cc1ccc2[nH]c3ccccc3c2c1	101 µg/mL
CCc1ccccc1NC(=O)c1c(C)n([O-])c2ccc(Cl)cc2[n+]1=O	>100 µg/mL
Cc1cn([C@@H]2O[C@@H](CO)[C@H](O[Si](C)(C)C(C)(C)C)C2(F)F)c(=O)[nH]c1=O	>100 µM
Cc1c(CN2CCN(C)CC2)cc(-c2ccccc2Cl)n1-c1ccccc1	4 µg/mL
COC(=O)c1ccc2[nH]c3ccccc3c2c1	>102 µg/mL
Nc1ncnc2c1ncn2[C@@H]1O[C@H](CCl)C[C@H]1O	40 µg/mL
COc1ccc(C2CC(=O)Nc3nc(-c4cccnc4)nn32)cc1	>50 µg/mL
CC(C)(C)c1cc(C(C)(C)C)c2oc(/C=C/c3ccccc3)nc2c1	902.2 µg/mL
Nc1nccc2c1ncn2[C@H]1CC[C@@H](CO)O1	200 µg/mL
S=c1cc(-c2ccccc2)s[nH]1	90 µM
CC1(C)C=C2[C@H]3CC[C@@H]4[C@@]5(C)CCC(=O)C(C)(C)[C@@H]5CC[C@@]4(C)[C@]3(C)CC[C@@]2(C(=O)O)CC1	40 µg/mL
Nc1ccn([C@@H]2C=C(F)[C@H](CO)O2)c(=O)n1	>100 µM
COc1ccc(C2CC(=O)Nc3nc(-c4ccc5ccccc5c4)nn32)cc1	>50 µg/mL
CC(C)(C)[Si](C)(C)O[C@H]1[C@H](CO)O[C@@H](n2ccc(N)nc2=O)C1(F)F	>100 µM
OCc1cc(COc2cc(C(F)(F)F)nc3c(C(F)(F)F)cccc23)on1	>128 µM
O=C(Nc1ccn[nH]1)c1ccc([N+](=O)[O-])o1	7.29 µg/mL
O=C(C/C=C/c1ccccc1)Nc1ccc(N2CCSCC2)cc1	32 µg/mL
CC(=O)Nc1ccc(/C=N/NC(=O)Cn2nc(-c3ccccc3)c3c2-c2ccccc2S(=O)(=O)N3C)cc1	≥100 µM
Clc1ccc(CNc2ccccc2-n2ccnc2)cc1	2 µg/mL
CN1c2c(-c3ccccc3)nn(CC(=O)N/N=C/c3ccc(Cl)c(Cl)c3)c2-c2ccccc2S1(=O)=O	>100 µM
CCCCc1ccc2nccc(N/N=C/c3ccc(OC)c4ccccc34)c2c1	5.7 µg/mL
CCc1ccccc1NC(=O)c1c(C)n([O-])c2ccc(F)cc2[n+]1=O	>100 µg/mL
Cc1nsc(C)c1C#N	1000 µM
NC(=O)c1cc(COc2cc(C(F)(F)F)nc3c(C(F)(F)F)cccc23)on1	>128 µM
CCCc1nc2n(n1)C(c1ccc([N+](=O)[O-])cc1)CC(=O)N2	>50 µg/mL
O=C(OCCC(F)(F)F)c1cc(COc2cc(C(F)(F)F)nc3c(C(F)(F)F)cccc23)on1	>128 µM
COc1ccc(/C=N/Nc2ccnc3ccc(C4CCCCC4)cc23)c2ccccc12	13.2 µg/mL
Cn1cc(C(=O)c2ccc(F)cc2)cc1/C=C/C(=O)O	15 µg/mL
O=c1[nH]c(=O)n([C@H]2C[C@H](O)[C@@H](CO)S2)cc1/C=C/Br	>500 µM
CCCC(=O)[C@]1(CCC2OCCO2)CC[C@@]2(c3ccccc3)ON12	>50 µg/mL
CC(=O)NC(CCSC[C@H]1O[C@@H](n2ccc3c(N)ncnc32)[C@H](O)[C@@H]1O)C(=O)OC(C)C	200 µg/mL
Cc1c(CN2CCSCC2)cc(-c2ccccc2)n1-c1ccccc1Cl	2 µg/mL
CN1c2c(-c3ccccc3)nn(CC(=O)N/N=C/c3ccccc3[N+](=O)[O-])c2-c2ccccc2S1(=O)=O	45.8 µM
O=C1CC(c2ccccc2)n2nc(-c3cccnc3)nc2N1	>50 µg/mL
Cc1c(CN2CCSCC2)cc(-c2ccccc2)n1-c1ccccc1	32 µg/mL
CCOC(=O)c1cc(COc2ccc3ccc(C(F)(F)F)nc3c2)on1	>128 µM
Cc1c(CN2CCSCC2)cc(-c2cccc3ccccc23)n1-c1ccccc1	4 µg/mL
O=c1[nH]c(=O)n([C@H]2C[C@H](O)[C@@H](CO[P@]3(=O)OCc4cccc(-c5ccccc5)c4O3)O2)cc1/C=C/Br	37.8 µg/mL
COc1ccc2[nH]c3ccc(C=O)cc3c2c1	>102 µg/mL
CC1(C)[C@@H](CO)CC[C@@]1(C)Cn1nnc2c(=O)[nH]cnc21	>400 µg/mL
CCOC(=O)c1cc(COc2cc(C(F)(F)F)c3nc(C(F)(F)F)cc(OCc4cc(C(=O)OCC)no4)c3c2)on1	>128 µM
COc1ccc2ccccc2c1/C=N/Nc1cc(C)nc2cc(Cl)ccc12	3.3 µg/mL
CC(=O)Nc1nc2c(CC(O)CO)nc(C)n2c(=O)[nH]1	200 µg/mL
O=C1CC(c2ccccc2)n2nc(-c3ccc4ccccc4c3)nc2N1	>50 µg/mL
COc1ccc(C(=O)c2cc(/C=C/C(=O)O)n(C)c2)cc1	500 µg/mL
Cc1c(CN2CCN(C)CC2)cc(-c2ccccc2)n1-c1ccccc1F	2 µg/mL
CCOC(=O)c1cc(COc2ccc3cccnc3c2)on1	107.6 µM
CCCCc1ccc2nc(C)cc(N/N=C/c3ccc4c(c3)OCO4)c2c1	6.8 µg/mL
Cc1c(C(=O)NCc2ccc(Br)cc2)[n+](=O)c2cc(Cl)c(Cl)cc2n1[O-]	>40 µg/mL
COc1ccc(-c2snc(SC)c2C#N)cc1	10 µM
COc1cccc(NC(=O)c2ccc([N+](=O)[O-])o2)c1	18.63 µg/mL
Cn1cc(C(=O)c2ccccc2)cc1/C=C/C(=O)O	250 µg/mL
O=c1[nH]c(=O)n([C@H]2C[C@H](O)[C@@H](COP3(=O)OCc4cccc(-c5ccccc5)c4O3)O2)cc1/C=C/Br	43 µg/mL
OCCOCn1c(-c2ccccc2)c(Br)c(Br)c1-c1ccccc1	51 µM
Cc1c(CN2CCSCC2)cc(-c2ccc(Cl)cc2)n1-c1ccc(Cl)cc1	32 µg/mL
CCOc1ccc2c(N/N=C/c3ccc(N(CC)CC)cc3)cc(C)nc2c1	6.2 µg/mL
CCCCCCCCCC1N=C(N)N2CCCC2=C1C(=O)OCCCCN=C(N)N	0.7 µM

A second listing of 11 rows from above:

{"SMILES": "O=Cc1ccc2[nH]c3ccccc3c2c1", "value": "101 µg/mL"}
{"SMILES": "CC(=O)OCCOCn1c(-c2ccccc2)cc([N+](=O)[O-])c1-c1ccccc1", "value": "37 µM"}
{"SMILES": "CN1c2c(-c3ccccc3)nn(CC(=O)N/N=C/c3ccc(Cl)c(Cl)c3)c2-c2ccccc2S1(=O)=O", "value": ">100 µM"}
{"SMILES": "CC(=O)Nc1nc2c(CC(O)CO)nc(C)n2c(=O)[nH]1", "value": "200 µg/mL"}
{"SMILES": "COc1cccc(NC(=O)c2ccc([N+](=O)[O-])o2)c1", "value": "18.63 µg/mL"}
{"SMILES": "Cc1nc(CC(O)CO)c2nc[nH]c(=O)n12", "value": ">400 µg/mL"}
{"SMILES": "O=C1CC(c2ccc([N+](=O)[O-])cc2)n2nc(C3CCCCC3)nc2N1", "value": ">50 µg/mL"}
{"SMILES": "O=C(Nc1ccn[nH]1)c1ccc([N+](=O)[O-])o1", "value": "7.29 µg/mL"}
{"SMILES": "NC(=O)c1cc(COc2cc(C(F)(F)F)nc3c(C(F)(F)F)cccc23)on1", "value": ">128 µM"}
{"SMILES": "CC1(C)[C@@H](CO)CC[C@@]1(C)Cn1nnc2c(Cl)ncnc21", "value": ">400 µg/mL"}
{"SMILES": "Cc1cn([C@H]2C[C@H](O)[C@@H](CO)S2)c(=O)[nH]c1=O", "value": "7.1 µM"}